Pooled drug test results. Numbers come from NIAID ChemDB, via PubChem.

Common to all: tests on isolated targets; species: Hepatitis C virus; target: Nonstructural protein 3 NTPase/helicase; endpoint: IC50

ICn is the concentration giving n% inhibition.

Cc1cccc2sc(N)nc12 ; result: >25 µg/mL
CC(=O)O[C@H]1C(=O)[C@@]2(C)[C@H]([C@H](OC(=O)c3ccccc3)[C@]3(O)C[C@H](OC(=O)[C@H](O)[C@@H](NC(=O)c4ccccc4)c4ccccc4)C(C)=C1C3(C)C)[C@]1(OC(C)=O)CO[C@@H]1C[C@@H]2O ; result: >1000 µM
Brc1c(Br)c(Br)c2n[nH]nc2c1Br ; result: 20 µM
NCCc1c[nH]c2ccccc12 ; result: >25 µg/mL
O=C(OC[C@H]1O[C@@H](n2cnc3c(=O)[nH]cnc32)[C@H](O)[C@@H]1O)c1ccc(S(=O)(=O)F)cc1 ; result: 200 µM
Cc1ccc2oc(-c3ccc(N)cc3)nc2c1 ; result: >25 µg/mL
COc1cccc2c1C(=O)c1c(O)c3c(c(O)c1C2=O)C[C@@](O)(C(C)=O)C[C@@H]3O[C@H]1C[C@H](N)[C@H](O)[C@H](C)O1 ; result: 57 µM
CN1CCN(CCCN2c3ccccc3Sc3ccc(C(F)(F)F)cc32)CC1 ; result: 0.6–0.7 µM
O=C(Nc1ccc(-c2nc3ccccc3o2)cc1)c1ccc(C(=O)Nc2ccc(-c3nc4ccccc4o3)cc2)cc1 ; result: >25 µg/mL
O=C(CCC(=O)N1CCC(c2nc3ccccc3[nH]2)CC1)N1CCC(c2nc3ccccc3[nH]2)CC1 ; result: 0.7 µM
O=C(CCC(=O)Nc1ccc(-c2nc3ccccc3[nH]2)cc1)Nc1ccc(-c2nc3ccccc3[nH]2)cc1 ; result: 0.7 µM
O=C1c2c(O)ccc(O)c2C(=O)C2C(NCCNCCO)=CC=C(NCCNCCO)C12 ; result: 6.7 µM
Cc1ccc2nc(-c3ccc(NC(=O)CCC(=O)Nc4ccc(-c5nc6ccc(C)cc6s5)cc4)cc3)sc2c1 ; result: >25 µg/mL
Nc1nc2c(ncn2CCCl)c(=O)[nH]1 ; result: 120 µM
CC(=O)O[C@H]1C(=O)[C@@]2(C)[C@H]([C@H](OC(=O)c3ccccc3)[C@]3(O)C[C@H](OC(=O)[C@H](O)[C@@H](NC(=O)c4ccccc4)c4ccccc4)C(C)=C1C3(C)C)[C@]1(OC(C)=O)CO[C@@H]1C[C@@H]2O ; result: 17 µM
Nc1nc2ncn(CCCl)c2c(=O)[nH]1 ; result: 18 µM
Clc1c(Cl)c(Cl)c2n[nH]nc2c1Cl ; result: >500 µM

Again, the opening 2 rows:

{"compound": "Cc1cccc2sc(N)nc12", "result": ">25 µg/mL"}
{"compound": "CC(=O)O[C@H]1C(=O)[C@@]2(C)[C@H]([C@H](OC(=O)c3ccccc3)[C@]3(O)C[C@H](OC(=O)[C@H](O)[C@@H](NC(=O)c4ccccc4)c4ccccc4)C(C)=C1C3(C)C)[C@]1(OC(C)=O)CO[C@@H]1C[C@@H]2O", "result": ">1000 µM"}

a–b is a range or a potency band. Lines come from different laboratories, so protocols vary.